From publication PMC2492869 (BMC Microbiology, 2008) come the findings set out here.

The data set concerns NC(N)=O. Briefly: purified protein. The conditions noted are these: pH 8.0.

“Brucella suis urease (ure-1 operon) (Brucella suis 1330)”: the Km came to 5.60 ± 0.69 mM.
